Among the data in PMC3832641, “Inhibition of Leishmania (Leishmania) amazonensis and Rat Arginases by Green Tea EGCG, (+)-Catechin and (−)-Epicatechin: A Comparative Structural Analysis of Enzyme-Inhibitor Interactions” (PLoS ONE, 2013) are IC50 values, retold here.

This experiment deals with recombinant arginase from Leishmania amazonensis (ARG-L) (Leishmania amazonensis, UniProt O96394). The experiment in a line: Inhibition of ARG-L, determination of IC50 (urea production, Berthelot method). It is filed as biochemical. The conditions noted are these: 50 mM L-arginine, CHES buffer 50 mM pH 9.5, 37°C, 15 min, mean ± SEM.

pIC50: −log10 of the molar value. “And” between values parts separate entries of the source, which are not always exact repeats. Equal entries are not always repeated.

As usually defined, the pIC50 is the negative decadic logarithm of the IC50, by convention in mol/L. In the case of `Oc1cc(O)c2c(c1)O[C@H](c1ccc(O)c(O)c1)[C@@H](O)C2` [(+)-catechin], the negative-log IC50 (pIC50) was 6.10 and 6.11.
To `Oc1cc(O)c2c(c1)O[C@H](c1ccc(O)c(O)c1)[C@H](O)C2` [(−)-epicatechin] belongs 5.74.
